A mixed list of measured activities; the numbers were collected in NIAID ChemDB.

Shared fields: tests in culture; organism: HIV-1; method: p24; measure: EC50

Blank or dashed fields: not listed here. ECn is the concentration giving n% inhibition of infection, replication or growth. Rows are shuffled and stem from different studies.

structure	mutations	cells	setting	strain	result
Cc1ccnc2c1NC(=O)c1cccnc1N2C1CC1	RT-M41L K103N T215Y	PBMC	-	MDR (RT M41L K103N T215Y) Clinical isolate	14.8 µM
CCCN(C)C(=O)Oc1nsnc1-c1c(Cl)ccc(N)c1Cl	-	MT-4	-	clinical isolate A018C AZT-resistant	0.025 µM
CCC(C1=C(O)CC2(CCCCC2)OC1=O)c1ccccc1	-	MT-4	-	IIIB	1 µM
CC1(C)OC1COc1c2ccoc2cc2oc(=O)ccc12	-	H9	-	IIIB	31.5 µM
COc1cc(OC)c2ccc(=O)oc2c1OC	-	H9	-	IIIB	0.933 µg/mL
Cc1cn([C@H]2CC[C@@H](CO)O2)c(=O)[nH]c1=O.O=C(O)P(=O)(O)O	-	MT-4	-	IIIB	5 µM
O=C(N[C@H]1c2ccccc2OC[C@H]1O)[C@H](Cc1cccnc1)C[C@H](O)CN1CCN(Cc2ccn(-c3cccc(C(F)(F)F)c3)c2)C[C@H]1C(=O)NCC(F)(F)F	PR-L10I M46I I54V Q58E L63P I64V V77I V82F I84V L90M I93L	MT-4	-	K-60C Clinical isolate	<0.031 µM
c1cc(CN2CCCNCCNCCCNCC2)ccc1CN1CCCNCCNCCCNCC1	-	PBMC	-	NL4-3	0.003 µg/mL
O=C(N[C@H]1c2ccccc2OC[C@H]1O)[C@H](Cc1cccnc1)C[C@H](O)CN1CCN(Cc2ccn(-c3ccccc3Cl)c2)C[C@H]1C(=O)NCC(F)(F)F	PR-L10I N37S R41K M46I I54V I62V L63P A71V V77I V82A L90M I93L	MT-4	-	Q-60C Clinical isolate	<0.031 µM
CC(C)(O)[C@H]1Cc2cc3ccc(=O)oc3cc2O1	-	H9	-	IIIB	>203.9 µM
CN1CCN(c2ncc(C(=O)N[C@H](C(=O)N[C@@H](Cc3ccccc3)[C@H](O)CN3C[C@H]4CCCC[C@H]4C[C@H]3C(=O)NC(C)(C)C)[C@H]3CCOC3)nc2Cl)CC1	-	MT-4	-	IIIB	<0.012 µM
Nc1ncnc2c1ncn2CCOCP(=O)(O)O	RT-M184V	MT-2	-	M184V(RT-M184V)	1.1 µM
OC[C@H]1N[C@H](CO)[C@@H](O)[C@@H]1O	-	JM	-	GBB	200 µg/mL
Cc1c(Sc2ccccc2)n(COCCO)c(=O)[nH]c1=O	-	PBL(DAY 16) + PBL	-	IIIB	2.2 µM
CC(C)(C)NC(=O)[C@@H]1C[C@@H]2CCCC[C@@H]2CN1C[C@@H](O)[C@H](Cc1ccccc1)NC(=O)[C@@H](NC(=O)c1cc(=O)c2ccccc2o1)[C@H]1CCOC1	-	MT-4	-	IIIB	<0.025 µM
CC(C)(C)NC(=O)[C@@H]1C[C@@H]2CCCC[C@@H]2CN1C[C@@H](O)[C@H](Cc1ccccc1)NC(=O)[C@H](CC(N)=O)NC(=O)c1ccc2ccccc2n1	-	C8166	-	RF	<0.001 µg/mL
Cc1cn([C@H]2C=C[C@@H](CO)O2)c(=O)[nH]c1=O	-	CEM	4 d	pNL4-3	0.27 µM
COC(=O)[C@H](Cc1ccccc1)NP(=O)(O)OC[C@H]1O[C@@H](n2cnc3cnccc32)[C@H](O)[C@@H]1O	-	PBL	-	A012 PRE-AZT	0.0093 µM
Nc1ccn([C@H]2CC[C@@H](CO)O2)c(=O)n1	-	ATH8	-	LAV	0.3 µM
CC(C)(C)NC(=O)[C@@H]1C[C@@H]2CCCC[C@@H]2CN1C[C@@H](O)[C@H](Cc1ccccc1)NC(=O)[C@H](CC(N)=O)NC(=O)c1ccc2ccccc2n1	-	H9(HIV-1(IIIB)) + H9	-	IIIB	0.05 µM
S=C(NCCCn1ccnc1)Nc1nccs1	RT-K103N Y181C	PBMC	-	A17	>100 µM
COc1ccc2c(c1)N(C(=O)OC(C)C)[C@@H](CSC)C(=S)N2	RT-M41L D67N K70R T215Y	PBL	-	D148/89 (AZT-resistant RT M41L D67N K70R T215Y)	<0.01 µM
Cc1cn([C@H]2C[C@H](N=[N+]=[N-])[C@@H](CO)O2)c(=O)[nH]c1=O	-	MT-4	-	IIIB	0.0097 µM
Nc1ccn([C@H]2CC[C@@H](CO)O2)c(=O)n1	RT-L74V	MT-2	-	L74V(RT-L74V)	1 µM
CC(C)(C)OC(=O)[C@@H]1CCCN1C[C@H](O)[C@H](Cc1ccccc1)NC(=O)[C@H](CC(N)=O)NC(=O)OCc1ccccc1	-	JM	-	GBB	10 µg/mL
CC(C)CN(C[C@@H](O)[C@H](Cc1ccccc1)NC(=O)[C@H](CC(N)=O)NC(=O)c1ccc2ccccc2n1)C(=O)NC(C)(C)C	PR-L10V T12I G16E R57K I64V	PBMC	-	Isolate A PR L10V/T12I/G16E/R57K/I64V	<0.2 µM
CC(=O)c1ccc(C)cc1NC(C(N)=O)c1c(Cl)cccc1Cl	RT-Y181C	MT-4	-	HE/NEV(RT-Y181C)	>137 µM
Cc1cn([C@H]2C[C@H](N=[N+]=[N-])[C@@H](CO)O2)c(=O)[nH]c1=O	-	PBMC	-	IIIB Subtype B	0.0011 µM
CC(C)Nc1cccnc1N1CCN(C(=O)c2cc3cc(NS(C)(=O)=O)ccc3[nH]2)CC1	RT-P236L	Macrophage + Monocytes/macrophages	-	BaL	7.4 µM
CC(C)(C)NC(=O)[C@@H]1C[C@@H]2CCCC[C@@H]2CN1C[C@@H](O)[C@H](Cc1ccccc1)NC(=O)[C@@H](NC(=O)c1ccc2ccccc2n1)[C@H]1CCSC1	-	MT-4	-	IIIB	<0.05 µM
CN[C@@H]1[C@H](O[C@@H]2OC[C@@H](O)[C@H](O)[C@H]2O)[C@@H](O)[C@H](O[C@H]2c3cc(C)c(C(=O)N[C@H](C)C(=O)O)c(O)c3-c3c(cc4c(c3O)C(=O)c3cc(OC)cc(O)c3C4=O)[C@@H]2O)O[C@@H]1C	-	PBMC	-	US2 R5 CLADE B	2.3 µg/mL
Cc1cccc(C)c1OCC(=O)N[C@@H](Cc1ccccc1)[C@@H](O)C[C@H](Cc1ccccc1)NC(=O)[C@H](C(C)C)N1CCCNC1=O	-	PBMC	clinical isolate, multidrug-resistant	-	0.41 µM
CC[C@]1(c2ccccc2)Oc2cccnc2-n2cccc2C1=O	-	Macrophage	-	-	0.57 µM
COC(=O)[C@H](C)NP(=O)(OC[C@@H]1C=C[C@H](n2cc(C)c(=O)[nH]c2=O)O1)Oc1ccc(Br)cc1	-	PBMC	-	IIIB	<0.0097 µM
CCC(Cc1ccccc1)c1cc(O)c(C(CC)c2ccccc2)c(=O)o1	-	MT-4	-	IIIB	3 µM
COc1ccc2c(c1)N(C(=O)OC(C)C)[C@@H](CSC)C(=S)N2	RT-K101I K103N Y181C G190A	H9	-	B8 (RT K101I K103N Y181C G190A)	>10 µg/mL
Cc1ccc(CCNC(=S)Nc2ccc(Br)cn2)cc1	-	PBMC	-	IIIB	0.007 µM
COC(=O)N[C@H](C(=O)N[C@@H](Cc1ccccc1)[C@@H](O)CN(Cc1ccc(-c2ccccn2)cc1)NC(=O)[C@@H](NC(=O)OC)C(C)(C)C)C(C)(C)C	-	MT-4	-	NL4-3	0.0036 µM
CC(=O)O[C@@H]1[C@H](OC(=O)CC(C)C)c2c(ccc3ccc(=O)oc23)OC1(C)C	-	H9	-	IIIB	1.3 µM
CCNc1cccnc1N1CCN(C(=O)c2cc3cc(OC)ccc3[nH]2)CC1	RT-P236L	PBMC	-	BaL	32 µM
CC(C)(C)NC(=O)[C@@H]1C[C@@H]2CCCC[C@@H]2CN1C[C@@H](O)[C@H](Cc1ccccc1)NC(=O)[C@@H](NC(=O)c1ccc2ccccc2n1)[C@@H]1CCOC1	-	MT-4	-	IIIB	<0.1 µM
CCN(c1ncccc1NC(C)(C)C)C1CCN(C(=O)c2cc3cc(NS(C)(=O)=O)ccc3[nH]2)CC1	-	PBMC	-	Isolate 410	<1.1 µM
COC(=O)[C@H](Cc1c[nH]c2ccccc12)NP(=O)(O)OC[C@H]1O[C@@H](n2cnc3cnccc32)[C@H](O)[C@@H]1O	-	PBL	-	A012 PRE-AZT	0.0044 µM
CC(C)(C)NC(=O)[C@@H]1C[C@@H]2CCCC[C@@H]2CN1C[C@@H](O)[C@H](Cc1ccccc1)NC(=O)[C@H](CC(N)=O)NC(=O)c1ccc2ccccc2n1	PR-L10R M46I L63P 184V	MT-4	-	NL4-3	<0.1 µM
Nc1ccn([C@@H]2CO[C@H](CO)S2)c(=O)n1	RT-V106I Y188C	C8166	-	RF	2.2 µM
O=c1[nH]cnc2c1ncn2[C@H]1CC[C@@H](CO)O1	-	MT-2	-	HXB2D	1.2 µM
O=Cc1ccc(O)cc1	-	H9	-	IIIB	3.28 µg/mL
O=C(N[C@H]1c2ccccc2OC[C@H]1O)[C@H](Cc1cccnc1)C[C@H](O)CN1CCN(Cc2ccn(-c3ccccc3)c2)C[C@H]1C(=O)NCC(F)(F)F	-	MT-4	-	NL4-3 WT	<0.015 µM
Cc1cn([C@H]2C=C[C@@H](CO)O2)c(=O)[nH]c1=O	-	PBMC	-	IIIB	0.023 µM
CC(C)(C)NC(=O)[C@@H]1C[C@@H]2CCCC[C@@H]2CN1C[C@@H](O)[C@H](Cc1ccccc1)NC(=O)[C@H](CC(N)=O)NC(=O)c1ccc2ccccc2n1	PR-L10V G48M F53L I54V	PBMC	-	ESP2-4 (PR L10V G48M F53L I54V)	1.264 µM
CC(C)(C)NC(=O)[C@@H]1C[C@@H]2CCCC[C@@H]2CN1C[C@@H](O)[C@H](Cc1ccccc1)NC(=O)[C@H](CC(N)=O)NC(=O)c1ccc2ccccc2n1	-	PBMC	-	JR-FL R5	0.006 µM
CCC[C@@]1(CCc2ccccc2)CC(O)=C([C@H](CC)c2cccc(NS(=O)(=O)c3ccc(C(F)(F)F)cn3)c2)C(=O)O1	-	PBMC	-	Isolate N. Amer 7	<0.16 µM
CC1(C)C2=CC(=O)C(O)(c3ccccc3)C(=O)N2c2ccc(Cl)cc21	-	PBMC/1(CC1) + PBMC	-	CC1	0.08 µM
O=c1[nH]cnc2c1ncn2[C@H]1CC[C@@H](CO)O1	-	H9	-	LAV	<10 µM
O=C(N[C@H]1c2ccccc2OC[C@H]1O)[C@H](Cc1cccnc1)C[C@H](O)CN1CCN(Cc2ccn(-c3ccc(F)cc3)c2)C[C@H]1C(=O)NCC(F)(F)F	-	MT-4	-	NL4-3 WT	<0.015 µM
COC(=O)c1nc(Cl)c(N[C@H](C(=O)N[C@@H](Cc2ccccc2)[C@H](O)CN2C[C@H]3CCCC[C@H]3C[C@H]2C(=O)NC(C)(C)C)[C@H]2CCOC2)nc1N	-	MT-4	-	IIIB	<0.003 µM
COc1ccc(Cc2nccc3cc(OC)c(OC)cc23)cc1OC	-	C8166	-	RF	11.5 µg/mL
COc1ccc([C@@H](CNC(=O)c2ccccc2)OC)cc1	-	H9	-	IIIB	<1.49 µg/mL
C=C(C)OC(=O)N1c2cc(Cl)ccc2NC(=S)C1(C)C	RT-K101I K103N Y181C G190A	H9	-	B8 (RT K101I K103N Y181C G190A)	>10 µg/mL
Cc1ccc(-c2ccc3c(c2)C=C(C(=O)Nc2ccc(C[N+](C)(C)C4CCOCC4)cc2)CCC3)cc1	-	PBMC	-	JR-FL R5	0.006 µM
Cc1cn([C@H]2CC[C@@H](CO)O2)c(=O)[nH]c1=O	-	H9	-	LAV	>100 µM
COC(=O)[C@H](C)NP(=O)(OC[C@@H]1C=C[C@H](n2cc(C)c(=O)[nH]c2=O)O1)Oc1ccc(Br)cc1	RT-M41L F116S T215Y	PBMC	-	X267-5 Clinical isolate ZDV-resistant	0.03 µM
c1cc(CN2CCCNCCNCCCNCC2)ccc1CN1CCCNCCNCCCNCC1	-	PBMC	-	SW30 CLADE C R5X4	<0.5 µM
CC(C)(C)NC(=O)[C@@H]1C[C@@H]2CCCC[C@@H]2CN1C[C@@H](O)[C@H](Cc1ccccc1)NC(=O)[C@H](CC(N)=O)NC(=O)c1ccc2ccccc2n1	PR-L90M	MT-2	-	HXB2	0.0057 µM
Cc1cn([C@H]2C[C@H](N=[N+]=[N-])[C@@H](CO)O2)c(=O)[nH]c1=O	-	H9	-	IIIB	<0.001 µg/mL
Cc1c(CBr)n2c(C[N+](C)(C)C)c(C)c(=O)n2c1=O.[Br-]	-	H9	-	IIIB	~300 µM

For reference, 8 entries again:

CCNc1cccnc1N1CCN(C(=O)c2cc3cc(OC)ccc3[nH]2)CC1 ; mutations: RT-P236L ; cells: PBMC ; strain: BaL ; result: 32 µM
O=C(N[C@H]1c2ccccc2OC[C@H]1O)[C@H](Cc1cccnc1)C[C@H](O)CN1CCN(Cc2ccn(-c3ccccc3)c2)C[C@H]1C(=O)NCC(F)(F)F ; cells: MT-4 ; strain: NL4-3 WT ; result: <0.015 µM
CC(=O)c1ccc(C)cc1NC(C(N)=O)c1c(Cl)cccc1Cl ; mutations: RT-Y181C ; cells: MT-4 ; strain: HE/NEV(RT-Y181C) ; result: >137 µM
CC(C)(C)NC(=O)[C@@H]1C[C@@H]2CCCC[C@@H]2CN1C[C@@H](O)[C@H](Cc1ccccc1)NC(=O)[C@@H](NC(=O)c1ccc2ccccc2n1)[C@H]1CCSC1 ; cells: MT-4 ; strain: IIIB ; result: <0.05 µM
COC(=O)[C@H](Cc1ccccc1)NP(=O)(O)OC[C@H]1O[C@@H](n2cnc3cnccc32)[C@H](O)[C@@H]1O ; cells: PBL ; strain: A012 PRE-AZT ; result: 0.0093 µM
Cc1cn([C@H]2CC[C@@H](CO)O2)c(=O)[nH]c1=O.O=C(O)P(=O)(O)O ; cells: MT-4 ; strain: IIIB ; result: 5 µM
COc1ccc(Cc2nccc3cc(OC)c(OC)cc23)cc1OC ; cells: C8166 ; strain: RF ; result: 11.5 µg/mL
CC(C)Nc1cccnc1N1CCN(C(=O)c2cc3cc(NS(C)(=O)=O)ccc3[nH]2)CC1 ; mutations: RT-P236L ; cells: Macrophage + Monocytes/macrophages ; strain: BaL ; result: 7.4 µM